Test results: patent US10912840B2 (priority 2012, dated 2021)

Test: general procedure: Fmoc solid-phase peptide synthesis; H-Cys(4-methoxytrityl)-2-chlorotrityl-resin; PyBOP, diisopropylethylamine
Details: coupling step

2-(tubulysin B)hydrazinecarboxylic acid (3′nitropyridyl-2′-yl)disulfanylethyl ester
step yield: 89% yield
